Data from article PMC9139167, “Rational Discovery of Antiviral Whey Protein-Derived Small Peptides Targeting the SARS-CoV-2 Main Protease” (Biomedicines, 2022).

Target: SARS-CoV-2 3CL Protease (Severe acute respiratory syndrome coronavirus 2, UniProt P0DTD1)
Assay: biochemical
[1] = read-out: Relative Inhibition (RI %)

`CC[C@H](C)[C@H](N)C(=O)N1CCC[C@H]1C(=O)N[C@@H](C)C(=O)N[C@H](C(=O)N[C@@H](Cc1ccccc1)C(=O)O)C(C)C` [IPAVF] was tested, and the IC50 was 1210 nM, the inhibition at 0.042 µM [1] was 27 ± 2.19% and the inhibition at 0.42 µM [1] was 42.9 ± 3.54%. The inhibition at 4.2 µM [1] was 50.2 ± 3.39%, the inhibition at 42 µM [1] was 52 ± 4.34% and the inhibition at 126 µM [1] was 57.28 ± 0.38%. It also gave an inhibition at 210 µM [1] of 70.4 ± 0.76% and an inhibition at 420 µM [1] of 65 ± 6.28%.
